# Measured values taken from PubChem BioAssay AID651602 (The Scripps Research Institute Molecular Screening Center, 2012).
# The entries are a selection whose mix differs from that of the whole data set. Activity calls are given as the source filed them. No stated cut-off is given here; in the data, active means inhibition above about 11%; inactive means the rest.
# Experiment: reduced absorbance of E. coli cultures with phage – HTS, RecBCD inhibitor project, primary screen (AID 651602)
# Settings: growth absorbance, at 11.9 µM, stronger effect = higher value
row,SMILES,inhibition
1,COc1cc(C2NCCC3(OCCO3)C2(C)C)cc(OC)c1OC (centres undefined),inactive: 2.49%
2,CCOP(=O)(Nc1cccc2ccccc12)OCC,inactive: 0.71%
3,COc1cc(C(=O)NCC2(N3CCOCC3)CCCCC2)cc(Cl)c1OC(C)C,inactive: 1.29%
4,O=[As](O)(O)c1cccnc1,inactive: 3.44%
5,CS(=O)(=O)c1ccc(Cl)c(NC(=O)COC(=O)C(O)(c2ccccc2)c2ccccc2)c1,inactive: 1.65%
6,O=C(OC1CN2CCC1CC2)c1ccc(Cl)cc1 (centres undefined),inactive: -0.54%
7,O=[As](O)(c1cccc(O)c1)c1cccc(O)c1,inactive: 1.38%
8,Cc1cccc(OCC(=O)OC2CN3CCC2CC3)c1 (centres undefined),inactive: 2.14%
9,COc1ccccc1CNC(=O)COC(=O)C(O)(c1ccccc1)c1ccccc1,inactive: -0.55%
10,CC1(CBr)Cn2c(nc3ccccc3c2=O)S1 (centres undefined),inactive: -0.37%
11,CN(C(=O)Cc1ccc(Cl)c(Cl)c1)[C@@H]1CCCC[C@H]1N1CCCC1,inactive: 4.7%
12,CC(C)/C=N\N=C(\N)N[N+](=O)[O-],inactive: 3.01%
13,CN(C(=O)Cc1ccc(Cl)c(Cl)c1)C1CCCC[C@@H]1N1CCCC1 (some centres undefined),inactive: 1.45%
14,CN(CCCl)Cc1cc(Cl)c(NC2=NCCN2)c(Cl)c1,inactive: 3.03%
15,CCOP(=O)(Nc1ccc(C)cn1)OCC,inactive: 0.08%
16,CCC1=CC2Cc3nc4ccc(Cl)cc4c(N)c3C(C1)C2 (centres undefined),inactive: 1.5%
17,O=P1(Nc2ccccn2)COc2ccccc2OC1,inactive: 0.15%
18,CCOP(=O)(NC(=NC(C)c1ccccc1)NC(C)c1ccccc1)OCC (centres undefined),inactive: -0.6%
19,Clc1n[nH]nc1-c1nn[nH][15n]1,inactive: 0.78%
20,O=P1(N(CCCl)CCCl)NCCC(C(F)(F)F)O1 (centres undefined),inactive: 3.17%
21,CC(C)(C)C(=O)NC(Sc1ncccn1)C(Cl)(Cl)Cl (centres undefined),inactive: 0%
22,O=P1(Nc2ncccn2)COc2ccccc2OC1,inactive: 1.47%
23,Cc1ccc(S(=O)(=O)N(CCCN)CCCc2c(C)nc(N)[nH]c2=O)cc1,inactive: 2.68%
24,NS(=O)(=O)c1cccc(NC(=O)COC(=O)C(O)(c2ccccc2)c2ccccc2)c1,inactive: 0.3%
25,O=P1(Nc2ccc(Br)cn2)COc2ccccc2OC1,inactive: 1.4%

row,SMILES,inhibition
1,Cc1ccc(OCC(=O)OC2CN3CCC2CC3)cc1 (centres undefined),inactive: 0.48%
2,O=[As](O)(c1cccs1)c1cccs1,inactive: 0.08%
3,Nc1cccc([As](=O)(O)c2ccccc2)c1,inactive: 2.3%
4,Cc1nn(-c2ccccc2)c2c1P(=O)(N1CCOCC1)N(C)C(c1ccccc1)=N2 (centres undefined),inactive: 1.25%
5,Cc1ccc(C(=O)OC2CN3CCC2CC3)cc1 (centres undefined),inactive: 3.99%
6,CC1CCC(C(C)C)C(OP(=O)(Nc2ccccn2)c2ccccc2)C1 (centres undefined),inactive: 2.39%
7,O=C(/C=C/c1ccccc1)OC1CN2CCC1CC2 (centres undefined),inactive: 4.07%
8,CCCC1OP(=O)(Nc2ccccc2)OCC1CC (centres undefined),inactive: 1.79%
9,CN(C)C1(CNC(=O)c2ccc(S(C)(=O)=O)cc2)CCCCC1,inactive: 0.91%
10,CCOC(=O)Nc1cccc([As](=O)(O)O)c1,inactive: 2.86%
11,O=[N+]([O-])c1ccc(Nc2ccc(Oc3ccc([N+](=O)[O-])cc3[N+](=O)[O-])cc2)c([N+](=O)[O-])c1,inactive: -1.67%
12,Cc1cc(SC(NC=O)C(Cl)(Cl)Cl)ncn1 (centres undefined),inactive: 4.46%
13,O=P(Nc1ccccn1)(c1cccc2ccccc12)c1cccc2ccccc12,inactive: 2.14%
14,CC1CCNP(=O)(N(CCCl)CCCl)O1 (centres undefined),inactive: -1.25%
15,O=C(O)C(O)c1ccc(N(CCCl)CCCl)cc1 (centres undefined),inactive: 0.23%
16,CCOC(=O)Nc1ccc([As](=O)(O)O)c(O)c1,inactive: 3.75%
17,CCCCOc1ccc(C(=O)NCC2(N3CCCCC3)CCCCC2)cc1OC,inactive: 2%
18,Cc1cc(SC(NC(=O)c2ccccc2)C(Cl)(Cl)Cl)nc(C(C)C)n1 (centres undefined),inactive: 1.48%
19,COP(=O)(OC)N1CC1c1ccccc1 (centres undefined),inactive: 1.32%
20,CCOC(=O)c1ccc(NC(=O)C(C)(CCl)SC)cc1 (centres undefined),inactive: 0.62%
21,O=C(OC1CN2CCC1CC2)c1cccc([N+](=O)[O-])c1 (centres undefined),inactive: 1.28%
22,CCC(C)N(CC(C)C)C(=S)SC(NC(C)=O)C(Cl)(Cl)Cl (centres undefined),inactive: 9.58%
23,COP1(=S)c2c(C)nn(CCC#N)c2N=C(c2ccc(F)cc2)N1C (centres undefined),inactive: 0.93%
24,COC(=O)C1(C)COP(=O)(N2CCCC2)OC1 (centres undefined),inactive: 1.61%
25,O=C(COc1ccccc1)OC1CN2CCC1CC2 (centres undefined),inactive: 0%

row,SMILES,inhibition
1,O=C(Nc1ccncc1[N+](=O)[O-])c1ccc([N+](=O)[O-])cc1[N+](=O)[O-],inactive: -1.35%
2,O=C(O)C(=O)c1ccc(N(CCCl)CCCl)cc1,inactive: 3.03%
3,COc1ccc(N/C(=N/P(=O)(N2CCOCC2)N2CCOCC2)N2CCOCC2)cc1,inactive: 0.85%
4,O=[N+]([O-])c1cc(Oc2ccc([N+](=O)[O-])cc2C(F)(F)F)cc([N+](=O)[O-])c1,inactive: 2.19%
5,O=C(OC1CN2CCC1CC2)C12CC3CC(CC(C3)C1)C2 (centres undefined),inactive: 2.36%
6,Cc1cc(=O)[nH]c(N[N+](=O)[O-])n1,inactive: 5.7%
7,Cc1c2c(nc3ccccc13)SC(C(Cl)Cl)C2 (centres undefined),inactive: 4.94%
8,COc1ccc2nc(NP(=O)(c3ccccc3)c3ccccc3)sc2c1,inactive: 2.73%
9,COc1cc(I)ccc1[As](=O)(O)O,inactive: 0.61%
10,O=P1(N(CCCl)CCCl)Nc2ccccc2N1,inactive: 0.08%
11,O=P1(N(CCCl)CCCl)OCCCN1CCCl (centres undefined),inactive: 2.73%
12,CC(C)c1ccc(OP(=O)(Nc2ccccn2)Oc2ccccc2F)cc1 (centres undefined),inactive: 3.28%
13,COC(=O)C1(C)COP(=O)(N2CCCCCC2)OC1 (centres undefined),inactive: 2.33%
14,ClCCSc1nnc(-c2cccnc2)o1,inactive: 3.71%
15,CCN(CC)C(=S)SC(NC=O)C(Cl)(Cl)Cl (centres undefined),inactive: 3.02%
16,O=C(OC1CN2CCC1CC2)c1cccc2[nH]cnc12 (centres undefined),inactive: -0.31%
17,CC(C)NC(=O)NP(=O)(Oc1ccccc1)Oc1ccccc1,inactive: 2.48%
18,O=[As](O)(c1ccc(O)cc1)c1ccccc1O,inactive: 2.31%
19,C[As](=O)(O)c1cccc(C(=O)O)c1,inactive: 0.8%
20,COc1cc(C(=O)NCC2(N3CCOCC3)CCCCC2)ccc1OCC(C)C,inactive: -0.31%
21,O=[N+]([O-])c1ccc(-c2cc([N+](=O)[O-])c(O)c([N+](=O)[O-])c2)cc1,inactive: 1.09%
22,Cc1ccc2nc3c(c(C)c2c1)CC(C(Cl)Cl)S3 (centres undefined),inactive: 1.84%
23,Cc1ccc(OP(=O)(Nc2ccc([N+](=O)[O-])cn2)Oc2ccc(C)cc2)cc1,inactive: -2.15%
24,[N-]=[N+]=NC1CCCCC1NC(=O)c1cc([N+](=O)[O-])cc([N+](=O)[O-])c1 (centres undefined),inactive: 2.45%
